Experimental findings from PMC10436556 are described below.

Results from cells or extracts need not show a direct contact. For some assays here: A negative result means that nothing was seen under these conditions. For some assays here: Protein sequences can lack the tags named with them. Construct, isoform or probe ends are uncertain for at least one entry. For some assays here: At least one verdict was read from the data and is not stated in words by the source. For some assays here: A weaker result is weaker than the reference pair of the same experiment.

Holding throughout (experiment): EMSA
The subject of data set [1] is NF-kB1/p50 in NE of RSV-infected hSAECs + RelA/p65 in NE of RSV-infected hSAECs. The settings on record: WCL/NE: 10 mM Tris-HCl pH 7.5, 1 mM EDTA, 50 mM NaCl, 2 mM DTT, 5% glycerol, 0.5% NP-40, BSA, poly(I:C), RT 20 min, His-IRF3: 10 mM Tris pH 7.5, 50 mM KCl, 1 mM DTT, protein in an extract.
In data set [2] the target is T1, IRF3 in NE of RSV-infected hSAECs (Homo sapiens (hSAEC)) (UniProt Q14653).
T1 sequence (looked up, limits assumed): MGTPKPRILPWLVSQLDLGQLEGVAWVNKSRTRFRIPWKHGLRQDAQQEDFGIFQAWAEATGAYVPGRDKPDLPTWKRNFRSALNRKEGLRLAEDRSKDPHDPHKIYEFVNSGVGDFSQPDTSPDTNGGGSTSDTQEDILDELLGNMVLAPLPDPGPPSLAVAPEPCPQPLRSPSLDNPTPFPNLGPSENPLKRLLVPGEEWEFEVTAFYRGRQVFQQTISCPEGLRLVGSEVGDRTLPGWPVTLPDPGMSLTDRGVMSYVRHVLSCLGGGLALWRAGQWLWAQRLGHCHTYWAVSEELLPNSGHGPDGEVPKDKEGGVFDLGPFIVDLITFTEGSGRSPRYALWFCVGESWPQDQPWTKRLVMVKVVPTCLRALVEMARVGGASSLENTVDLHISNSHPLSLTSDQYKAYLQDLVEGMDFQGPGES
The settings on record: WCL/NE: 10 mM Tris-HCl pH 7.5, 1 mM EDTA, 50 mM NaCl, 2 mM DTT, 5% glycerol, 0.5% NP-40, BSA, poly(I:C), RT 20 min, His-IRF3: 10 mM Tris pH 7.5, 50 mM KCl, 1 mM DTT, protein in an extract.

Data set [3] deals with T2, NF-kB1/p50 in NE of RSV-infected hSAECs (Homo sapiens (hSAEC)) (UniProt P19838).
T2 sequence (looked up, limits assumed): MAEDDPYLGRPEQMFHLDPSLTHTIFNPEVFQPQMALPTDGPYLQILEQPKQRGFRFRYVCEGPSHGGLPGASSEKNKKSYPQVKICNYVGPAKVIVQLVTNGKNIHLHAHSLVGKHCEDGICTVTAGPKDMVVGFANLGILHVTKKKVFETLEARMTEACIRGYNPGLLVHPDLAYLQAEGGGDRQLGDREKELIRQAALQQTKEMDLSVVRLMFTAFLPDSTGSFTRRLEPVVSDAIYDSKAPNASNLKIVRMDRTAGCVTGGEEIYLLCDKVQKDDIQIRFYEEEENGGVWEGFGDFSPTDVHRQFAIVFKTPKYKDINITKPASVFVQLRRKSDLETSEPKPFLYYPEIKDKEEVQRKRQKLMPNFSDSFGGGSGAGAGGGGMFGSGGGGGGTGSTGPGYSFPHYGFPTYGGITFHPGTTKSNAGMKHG
The settings on record: WCL/NE: 10 mM Tris-HCl pH 7.5, 1 mM EDTA, 50 mM NaCl, 2 mM DTT, 5% glycerol, 0.5% NP-40, BSA, poly(I:C), RT 20 min, His-IRF3: 10 mM Tris pH 7.5, 50 mM KCl, 1 mM DTT, protein in an extract.

Data set [4] addresses OGG1 in NE of RSV-infected hSAECs (Homo sapiens (hSAEC)) (UniProt O15527). The settings on record: WCL/NE: 10 mM Tris-HCl pH 7.5, 1 mM EDTA, 50 mM NaCl, 2 mM DTT, 5% glycerol, 0.5% NP-40, BSA, poly(I:C), RT 20 min, His-IRF3: 10 mM Tris pH 7.5, 50 mM KCl, 1 mM DTT, protein in an extract.
Data set [5] concerns OGG1 (recombinant, ProSpec ENZ-253) + IRF3 in NE of RSV-infected hSAECs. As to conditions: rOGG1 added to NE, WCL/NE: 10 mM Tris-HCl pH 7.5, 1 mM EDTA, 50 mM NaCl, 2 mM DTT, 5% glycerol, 0.5% NP-40, BSA, poly(I:C), RT 20 min, His-IRF3: 10 mM Tris pH 7.5, 50 mM KCl, 1 mM DTT, commercial protein, letters put together from the description.

Take “CTGTGTTTTCACTTTTCCTACATCAGCTGGGACTGCCCTTCTGTCAGGGATAA (double strand) [Pr0]”: the binding result in data set [1] (p50-p65 heterodimer) is recorded as “binds”; in data set [2] (NE of RSV-infected OGG1 KO hSAECs, rOGG1 had no effect), “binds”; in data set [3] (RelA-depleted NE, p50-p50) it was “binds”; in data set [4] (NE of RSV-infected hSAECs, Wt probe), “no binding”.
Consider “CTGTGTTTTCACTTTTCCTACATCAGCTGGGACTGCCCTTCTGTCAGGGATAA (double strand) [Pr2]”, for which the binding result in data set [1] (p50-p65 heterodimer, 8-oxoG at top position 48, letters put together from the description) is on record as “binds”; in data set [1] (with rOGG1, drastic diminution, 8-oxoG at top position 48, letters put together from the description) it was “binds more weakly”; in data set [2] (with rOGG1, IRF-DNA complex decreases with OGG1 concentration, 8-oxoG at top position 48, letters put together from the description) it was “binds more weakly”; in data set [2] (without OGG1, 8-oxoG at top position 48, letters put together from the description), “binds”; in data set [3] (RelA-depleted NE, p50-p50, 8-oxoG at top position 48, letters put together from the description), “binds”; in data set [3] (with rOGG1, p50-p50 complex, 8-oxoG at top position 48, letters put together from the description) it was “binds”. The binding result in data set [5] (higher shift, 8-oxoG at top position 48) is recorded as “binds”; in data set [4] (NE of RSV-infected hSAECs, early time points, 8-oxoG at top position 48, letters put together from the description) it was “binds”; in data set [4] (late infection, O-GlcNAcylated OGG1 unable to bind, 8-oxoG at top position 48, letters put together from the description) it was “binds more weakly”.
In the case of “CTGTGTTTTCACTTTTCCTACATCAGCTTGGACTGCCCTTCTGTCATGGATAA / TTATCCCTGACAGAAGGGCAGTCCCAGCTGATGTAGGAAAAGTGAAAACACAG [Pr3]”, the binding result in data set [3] (p50-p50, 8-oxoG at bottom position 18 from 5' end) is given as “binds”.
Take “CTGTGTTTTCACTTTTCCTACATCAGCTTGGACTGCCCTTCTGTCATGGATAA / TTATCACTGACAGAAGGTCAGTCCCAGCTGATGTAGGAAAAGTGAAAACACAG [Pr4]”: the binding result in data set [3] (p50-p50) is on record as “no binding”.
As for “CTGTGTTTTCACTTTTCCTACATCAGCTGGGACTGCCCTTCTGTCAGGGATAA (double strand) [Pr1a]”, the binding result in data set [2] (similar to Pr0, 8-oxoG in bottom strand, within IRE (printed position 10 from its 3' end; opposite top C10), letters put together from the description) is “binds”.
Take “CTGTGTTTTCACTTTTCCTACATCAGCTGGGACTGCCCTTCTGTCAGGGATAA (double strand) [Pr1]”: the binding result in data set [2] (similar to Pr0, 8-oxoG at top position 29, letters put together from the description) was “binds”; in data set [2] (with rOGG1, IRF-DNA complex decreases with OGG1 concentration, 8-oxoG at top position 29, letters put together from the description) it was “binds more weakly”; in data set [3] (p50-p50, 8-oxoG at top position 29, letters put together from the description), “binds”; in data set [5] (additional IRF-OGG1 complexes, 8-oxoG at top position 29) it was “binds”.
